Experimental data: paper PMC5679670, “The helicase DinG responds to stress due to DNA double strand breaks” (PLoS ONE, 2017)
Construct, isoform or probe ends are uncertain for at least one entry. At least one verdict was read from the data and is not stated in words by the source. Tags and fusion partners may be left off the protein sequences shown.

Molecular target: T1, DinGNm (Neisseria meningitidis MC58) (UniProt Q9K181)
T1 sequence (looked up, limits assumed): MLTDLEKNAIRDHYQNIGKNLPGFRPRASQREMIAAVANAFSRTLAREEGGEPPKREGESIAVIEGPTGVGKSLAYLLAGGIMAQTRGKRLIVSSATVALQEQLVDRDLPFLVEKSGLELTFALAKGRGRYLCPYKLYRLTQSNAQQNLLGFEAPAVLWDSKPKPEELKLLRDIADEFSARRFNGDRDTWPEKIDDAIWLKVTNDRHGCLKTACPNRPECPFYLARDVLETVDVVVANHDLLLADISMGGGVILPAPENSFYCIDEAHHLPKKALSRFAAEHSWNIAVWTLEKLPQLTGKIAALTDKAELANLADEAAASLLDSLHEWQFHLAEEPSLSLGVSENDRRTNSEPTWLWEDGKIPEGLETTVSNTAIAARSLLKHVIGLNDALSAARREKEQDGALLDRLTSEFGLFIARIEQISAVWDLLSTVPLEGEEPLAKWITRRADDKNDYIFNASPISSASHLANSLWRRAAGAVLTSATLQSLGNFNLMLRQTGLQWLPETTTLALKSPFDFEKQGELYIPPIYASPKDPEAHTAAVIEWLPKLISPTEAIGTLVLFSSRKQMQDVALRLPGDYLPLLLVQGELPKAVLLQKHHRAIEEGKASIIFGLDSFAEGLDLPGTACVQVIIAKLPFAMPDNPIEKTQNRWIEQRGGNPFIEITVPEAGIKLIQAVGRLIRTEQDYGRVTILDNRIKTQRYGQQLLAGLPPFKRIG
Experiment: EMSA
Settings: protein titration, curve only in figure; EMSA: 40 mM Tris-HCl pH 8, 2.5 mM EDTA, 2 mM MgCl2, 6% glycerol, 2 mM DTT, 0.1 nM 32P-DNA, 15 min on ice; 5% native PAGE in ice bath; recombinant protein; protein details: C-terminal 6xHis; label: 32P; single-stranded DNA

“TTTTTTTTTTTTTTTTTTTTTTTTTTTTTTTTTTTTTTTTTTTTTTTTTTTTTTTTTTTTTTTTTTTTTTTTTTTTTTTTTTTTTTTTTTTTTTTTTTTT [poly dT100]”: binds.
